# Laboratory results reported in paper PMC8957246, “Synthesis and diverse biological activity profile of triethylammonium isatin-3-hydrazones” (ADMET & DMPK, 2022).
# Tested on: Phytophthora cactorum VKM F-985
# Assay: Fungicidal activity, radial growth inhibition, P. cactorum
# Type: cell-based
# Details: by seven days of the fungus growth
# From the text: Plant pathogenic bacterial strains Micrococcus luteus B-109, Pectobacterium atrosepticum 1043, Pectobacterium carotovorum subsp. carotovorum MI, Pseudomonas fluorescens EL-2.1, and Xanthomonas campestris B-610 and fungal strain Fusarium oxysporum IBPPM 543 were obtained from the specialized scientific culture collection of IBPPM RAS (WFCC no. 975, WDCM no. 1021) (CM IBPPM). Pathogenic fungus Phytophthora cactorum VKM F-985 provided by the All-Russian Collection of Microorganisms (VKM) and deposited at A.E. Favorsky Irkutsk Institute of Chemistry, SB RAS, was also used as test organism. […]
# For the fungicidal activity analysis, radial growth (colony diameters) of the fungi on a solid medium in the absence and in the presence of the compounds 3a,c-g solutions at various concentrations were compared. The method consisted of the following: sterile, melted and then cooled to about 60°C GPY agar medium (20.0 ml) was mixed with the precisely measured volumes of the solutions under question, and poured into a sterile Petri dish (90 mm i.d.). […] The fungicidal effect was scored by the size of mycelium colony on a Petri dish compared to the control without fungicidal admixtures to GPY agar. […]
smiles,measurement,value
"CC[N+](CC)(CC)CC(=O)N/N=C1\C(=O)N(Cc2cc(C(C)(C)C)c(O)c(C(C)(C)C)c2)c2c1ccc(C)c2C [Compound 3d, 2-(2-(1-(3,5-Di-tert-butyl-4-hydroxybenzyl)-6,7-dimethyl-2-oxoindolin-3-ylidene)hydrazinyl)-N,N,N-triethyl-2-oxoethanammonium bromide]",antagonistic effect superior to fludioxonil,2.5 times
"CCc1cccc2c1N(Cc1cc(C(C)(C)C)c(O)c(C(C)(C)C)c1)C(=O)/C2=N\NC(=O)C[N+](CC)(CC)CC [Compound 3c, 2-(2-(1-(3,5-Di-tert-butyl-4-hydroxybenzyl)-7-ethyl-2-oxoindolin-3-ylidene)hydrazinyl)-N,N,N-triethyl-2-oxoethanammonium bromide]",antagonistic effect superior to fludioxonil,13.2 times
